Pooled drug test results. Numbers come from NIAID ChemDB, via PubChem.

Common to all: tests in culture

Blank or dashed fields: not listed here. Neighbouring rows are from separate reports. A number after MIC or MFC names an inhibition level or a share of isolates. Inhibition is in % at the dose shown (toxicity tests: loss of growth or viability). ECn is the concentration giving n% inhibition of infection, replication or growth. Fold resistance: result on the changed form divided by that on wild type. Two numbers with a dash give a range or band.

smiles,changes,read by,endpoint,cells,species,tested at,strain,value
Nc1nc2c(ncn2CCC(CO)CO)c(=O)[nH]1,,plaque count,EC50,HEL,Varicella zoster virus,,PFA-resistant/A,1.67 µg/mL
CCC(C)n1ncn(-c2ccc(N3CCN(c4ccc(OC[C@H]5CO[C@](Cn6cncn6)(c6ccc(Cl)cc6Cl)O5)cc4)CC3)cc2)c1=O,,,MIC,,Candida albicans,,Isogenic isolate 16 CDR,0.25 µg/mL
NC(=O)c1nc(F)c[nH]c1=O,,plaque count,EC50,MDCK,Influenza A virus,,Influenza A/Ibaraki/1/90 (H3N2),0.3 µg/mL
CC(=O)NC[C@H]1CN(c2ccc(N3CCOCC3)c(F)c2)C(=O)O1,,,MIC90,,Staphylococcus aureus,,Oxacillin-resistant,1–4 µg/mL
O=C(O)CP(=O)(O)O,,cytopathic effect,EC50,HEL,Herpes simplex virus 1,,KOS S2242-resistant,81.7 µg/mL
COc1cc(Cc2cnc(N)nc2N)cc(OC)c1OC,,,MIC,,Mycobacterium ulcerans,,Isolate 5155,>16 µg/mL
O=c1[nH]c(=O)n([C@@H]2O[C@H](CO)[C@@H](O)[C@@H]2O)cc1/C=C/Br,,plaque count,EC50,HEL,Varicella zoster virus,,PCV-resistant/B,0.00019 µg/mL
NC12CC3CC(CC(C3)C1)C2,,,MIC,,Influenza A virus,,A/University of Maryland/2/72,0.05 µg/mL
Nc1nc2c(ncn2CCC(CO)CO)c(=O)[nH]1,,antigen / flow cytometry,EC50,HSB-2,Human herpesvirus 6,,GS,>400 µM
CN[C@@H]1[C@H](O[C@H]2[C@H](O[C@H]3[C@H](O)[C@@H](O)[C@H](N=C(N)N)[C@@H](O)[C@@H]3N=C(N)N)O[C@@H](C)[C@]2(O)C=O)O[C@@H](CO)[C@H](O)[C@H]1O,,,MIC,,Klebsiella pneumoniae,,ESBL-3971,6.25 µg/mL
Oc1cc(O)c2c(c1)OC(c1ccc(O)c(O)c1)[C@@H](O)C2,,broth dilution,MIC50,,Candida tropicalis,,Clinical isolate 1,>128 µg/mL
C=C(C)CN(CC)c1c([N+](=O)[O-])cc(C(F)(F)F)cc1[N+](=O)[O-],,,EC50,,Toxoplasma gondii,,Ethalfluralin-resistant,3 µM
C[C@@]1(O)[C@H](O)[C@@H](CO)O[C@H]1c1c[nH]c2c(N)ncnc12,,MTT,inhibition,HepG2-T5B,Hepatitis C virus,50 µg/mL,,0%
Nc1nc2c(ncn2CCOCP(=O)(O)O)c(=O)[nH]1,,cytopathic effect,EC50,,Measles virus,,CC,9 µg/mL
CN(C)[C@@H]1C(=O)C(C(N)=O)=C(O)[C@@]2(O)C(=O)C3=C(O)c4c(O)cccc4[C@@](C)(O)[C@H]3C[C@@H]12,,broth dilution,MIC,,Mycobacterium bolletii,,,>128 µg/mL
Nc1nc2c(ncn2COC(CO)CO)c(=O)[nH]1,,cytopathic effect,EC50,HEL,Herpes simplex virus 1,,KOS PMEDAP-resistant,0.003 µg/mL
Nc1nc(N)c2ncn(CCOCP(=O)(O)O)c2n1,,plaque count,EC50,HEL,Varicella zoster virus,,BVaraU-resistant,0.93 µg/mL
Nc1ccnc2c1ncn2[C@H]1C=C[C@@H](OCP(=O)(O)O)O1,,virus yield,EC90,,Adenovirus,,adenoid 6 (TYPE 2),7 µg/mL
C[C@H]1COc2c(N3CCN(C)CC3)c(F)cc3c(=O)c(C(=O)O)cn1c23,,,MIC,,Streptococcus pneumoniae,,Clinical isolate CP1000,1 µg/mL
CCc1c2c(nc3ccc(O)cc13)-c1cc3c(c(=O)n1C2)COC(=O)[C@@]3(CC)OC(=O)CN,,,MIC,,Saccharomyces cerevisiae,,Mutant ΔERG6 ΔTOP1,>100 µg/mL
O=c1[nH]c(=O)n([C@H]2C[C@H](O)[C@@H](CO)O2)cc1/C=C/Br,,cytopathic effect,EC50,HEL,Herpes simplex virus 1,,KOS ACV-resistant,42.5 µg/mL
Nc1nc(N)c2ncn(CCOCP(=O)(O)O)c2n1,,plaque count,EC50,C1271,Mouse cytomegalovirus,,WILD TYPE,0.3 µM
CC(C)(CO)C(=O)SCCOP(=O)(NCc1ccccc1)OC[C@H]1O[C@@H](n2cnc3c(=O)[nH]c(N)nc32)[C@](C)(O)[C@@H]1O,L31F,replicon,fold resistance,Replicon cells,Hepatitis C virus,,GT1a,1.06
NC1=NCN([C@@H]2O[C@H](CO)[C@@H](O)[C@H]2O)C(=O)N1,,cytopathic effect,EC50,VERO,West Nile virus,,NEW YORK,>9.8 µg/mL
C[C@@H]1[C@H](O)[C@@H](C)/C=C/C=C/CC/C=C/C=C/C=C/C=C/C(O[C@H]2O[C@H](C)[C@@H](O)[C@H](N)[C@@H]2O)CC2O[C@](O)(CC(O)C(O)CCC(O)CC(O)CC(O)CC(=O)O[C@H]1C)CC(O)C2C(=O)O,,broth dilution,MIC100,,Candida albicans,,ICB 12,64 µg/mL
CC(C)=CCN1c2cc(Cl)cc3[nH]c(=S)n(c23)C[C@@H]1C,RT-M41L T215Y Y181C,,EC50,MT-4,HIV-1,,,>3 µM
CC[C@@]1(O)C(=O)OCc2c1cc1n(c2=O)Cc2cc3c(N)c4c(cc3nc2-1)OCO4,,,MIC,,Saccharomyces cerevisiae,,Mutant ΔERG6 ΔTOP1,>100 µg/mL
Nc1ccn(C[C@@H](CO)OCP(=O)(O)O)c(=O)n1,,virus yield,EC90,,Adenovirus,,WT 300 (TYPE 5),0.4 µg/mL
CC1(C)[C@@H](O[C@H]2O[C@H](C(=O)O)[C@@H](O)[C@H](O)[C@H]2O[C@@H]2O[C@H](C(=O)O)[C@@H](O)[C@H](O)[C@H]2O)CC[C@]2(C)[C@H]3C(=O)C=C4[C@@H]5C[C@@](C)(C(=O)O)CC[C@]5(C)CC[C@@]4(C)[C@]3(C)CC[C@@H]12,,virus yield,EC50,VERO,Dengue virus,,TYPE 2 (NGC),<317 µg/mL
Nc1nc2c(nnn2CCOCP(=O)(O)O)c(=O)[nH]1,,antigen / flow cytometry,EC50,HSB-2,Human herpesvirus 6,,GS,>25 µM
O=C[C@@H](CO)O[C@H](C=O)n1ccc(=O)[nH]c1=O,,cytopathic effect,EC50,VERO,West Nile virus,,NEW YORK,85 µg/mL
NC1CCCCCCC1,,,MIC,,Influenza A virus,,A/England/42/74,0.05 µg/mL
Cc1ccc(C(=O)Nc2ccc(S(=O)(=O)O)c3cc(S(=O)(=O)O)cc(S(=O)(=O)O)c23)cc1NC(=O)c1cccc(NC(=O)Nc2cccc(C(=O)Nc3cc(C(=O)Nc4ccc(S(=O)(=O)O)c5cc(S(=O)(=O)O)cc(S(=O)(=O)O)c45)ccc3C)c2)c1,,cytopathic effect,EC50,VERO,West Nile virus,,NEW YORK,56 µg/mL
Nc1nc(N)c2ncn(CCOCP(=O)(O)O)c2n1,,cytopathic effect,EC50,HSB-2,Human herpesvirus 6,,GS,11 µM
O=c1[nH]c(=O)n([C@@H]2O[C@H](CO)[C@@H](O)[C@H]2O)[nH]c1=S,,cytopathic effect / visual reading,EC50,VERO,West Nile virus,,Uganda,100 µg/mL
Nc1ncnc2c1ncn2CCOCP(=O)(O)O,,cytopathic effect,EC50,HEL,Varicella zoster virus,,Oka PMEA-resistant,≥183 µM
CC[C@@]1(OC(=O)CN)C(=O)OCc2c1cc1n(c2=O)Cc2cc3ccccc3nc2-1,,,MIC,,Saccharomyces cerevisiae,,JHY6-1C,6.25 µg/mL
CC(C)(C)OC(=O)N[C@@H]1CCCCC/C=C\[C@@H]2C[C@@]2(C(=O)NS(=O)(=O)C2CC2)NC(=O)[C@@H]2C[C@@H](OC(=O)N3Cc4cccc(F)c4C3)CN2C1=O,,antigen,EC50,Huh7.5,Hepatitis C virus,,HK6a,0.025 µM
CO[C@@H]1[C@@H](O[C@@H]2O[C@H](C)[C@@H](O[C@H]3C[C@@](C)(O)[C@@H](O)[C@H](C)O3)[C@H](N(C)C)[C@H]2O)[C@@H](CC=O)C[C@@H](C)[C@@H](O[C@H]2CC[C@H](N(C)C)[C@H](C)O2)/C=C/C=C/C[C@@H](C)OC(=O)C[C@H]1O,,,EC50,,Toxoplasma gondii,,,<2 µg/mL
CN(C)[C@@H]1C(=O)C(C(N)=O)=C(O)[C@@]2(O)C(=O)C3=C(O)c4c(O)c(NC(=O)CNC(F)(F)F)cc(F)c4C[C@H]3C[C@@H]12,,agar diffusion,EC50,,Staphylococcus aureus,,158-tet,4 µg/mL
O=C(O)P(=O)(O)O,,cytopathic effect,EC50,HEL,Herpes simplex virus 1,,KOS ACV-resistant,29.5 µg/mL
CC[C@@]1(O)C(=O)OCc2c1cc1n(c2=O)Cc2cc3cc4c(cc3nc2-1)OCO4,,,MIC,,Saccharomyces cerevisiae,,JHY6-1C,>100 µg/mL
Nc1ccn(C[C@H]2COP(=O)(O)CO2)c(=O)n1,,antigen / flow cytometry,EC50,HSB-2,Human herpesvirus 6,,GS,5.6 µM
CCCOc1ccc2nc(NC(=O)OC)[nH]c2c1,,,EC50,,Cryptococcus neoformans,,IU8698,<2.1 µg/mL
COc1cc(Cc2cnc(N)nc2N)cc(OC)c1Br,,,MIC,,Mycobacterium ulcerans,,ATCC 35840,4 µg/mL
NC(=O)c1c[se]c([C@@H]2O[C@H](CO)[C@@H](O)[C@H]2O)n1,,cytopathic effect,EC50,VERO,West Nile virus,,Uganda,10 µg/mL
CC[C@@]1(OC(=O)CN)C(=O)OCc2c1cc1n(c2=O)Cc2c-1nc1cc3c(cc1c2CCl)OCO3,,,MIC,,Saccharomyces cerevisiae,,JHY6-1C,3.12 µg/mL
COc1ccc2c(O[C@@H]3C[C@H]4C(=O)N[C@]5(C(=O)NS(=O)(=O)C6CC6)C[C@H]5/C=C\CCCCN(C)C(=O)[C@@H]4C3)cc(-c3nc(C(C)C)cs3)nc2c1C,,antigen,EC50,Huh7.5,Hepatitis C virus,,JCH4,0.116 µM
CCO/N=C/c1ccc(OCCC2CCN(c3ccc(C)nn3)CC2)cc1,,neutral red,EC50,KB,Rhinovirus,,50-525-CV54 (ICAM-1 receptor group 85),0.008 µM
COC(=O)Nc1nc2ccc(Sc3ccccc3)cc2[nH]1,,,EC90,,Cryptococcus neoformans,,10 isolates,0.015–0.033 µg/mL
COc1c(C)c2c(c(O)c1C/C=C(\C)CCC(=O)O)C(=O)OC2,,cytopathic effect / visual reading,EC50,MA-104,West Nile virus,,NEW YORK,0.9 µg/mL
NC(=O)c1ncn([C@@H]2O[C@H](CO)[C@@H](O)[C@H]2O)n1,,plaque count,EC50,HEP-2,Respiratory syncytial virus,,N869,11.9 µM
OC(Cn1cncn1)(Cn1cncn1)c1ccc(F)cc1F,,broth dilution,MIC,,Candida albicans,,YL 336,512 µg/mL
Nc1ccn([C@@H]2C=C(CO)[C@@H](O)[C@@H]2O)c(=O)n1,,cytopathic effect / visual reading,EC50,VERO,West Nile virus,,Uganda,0.029 µg/mL
NC(=O)c1ncn([C@@H]2O[C@H](CO)[C@@H](O)[C@H]2O)n1,,cytopathic effect,EC50,CV-1,Measles virus,,X-1108,20 µg/mL
Nc1nc2c(ncn2COC(COCP(=O)(O)O)COCP(=O)(O)O)c(=O)[nH]1,,plaque count,EC50,C1271,Mouse cytomegalovirus,,Foscarnet-resistant,1.9 µM
COC(=O)Nc1nc2ccc(C(=O)c3cccs3)cc2[nH]1,,,EC90,,Cryptococcus neoformans,,IU8698,0.12 µg/mL
CO[C@H]1/C=C/O[C@@]2(C)Oc3c(C)c(O)c4c(=O)c(c5oc6cc(N7CCN(CC(C)C)CC7)cc(=O)c6nc5c4c3=C2O)NC(=O)/C(C)=C\C=C\[C@H](C)[C@H](O)[C@@H](C)[C@@H](O)[C@@H](C)[C@H](OC(C)=O)[C@@H]1C,,,MIC90,,Staphylococcus aureus,,20 strains (methicillin-resistant),0.016 µg/mL
Nc1nc2c(ncn2COC(CO)CO)c(=O)[nH]1,,plaque count,EC50,C1271,Mouse cytomegalovirus,,Foscarnet-resistant,6.3 µM
Nc1nc(=O)n([C@@H]2O[C@H](CO)[C@@H](O)[C@@H]2F)cc1I,,cytopathic effect,EC50,HEL,Herpes simplex virus 1,,KOS ACV-resistant,6.8 µg/mL
CC[C@H]1OC(=O)[C@H](C)[C@@H](O[C@H]2C[C@@](C)(OC)[C@@H](O)[C@H](C)O2)[C@H](C)[C@@H](O[C@@H]2O[C@H](C)C[C@H](N(C)C)[C@H]2O)[C@](C)(OC)C[C@@H](C)C(=O)[C@H](C)[C@@H](O)[C@]1(C)O,,,MIC50,,Staphylococcus aureus,,20 strains (methicillin-susceptible),0.0625 µg/mL
C#CC[C@@H](C(=O)N[C@H](/C=C/C(=O)OCC)C[C@@H]1CCNC1=O)n1cccc(NC(=O)c2cc(C)on2)c1=O,,cytopathic effect / XTT,inhibition,H1-HELA,Rhinovirus,0.232 µM,Serotype 78,90%
Nc1ccn(C[C@@H](CO)OCP(=O)(O)O)c(=O)n1,,plaque count,EC50,HEL,Varicella zoster virus,,PFA-resistant/B,0.078 µg/mL
C[C@@]1(O)[C@H](O)[C@@H](CO)O[C@H]1n1ccc2c(N)ncnc21,,MTT,inhibition,HepG2-T5B,Hepatitis C virus,50 µg/mL,,0%
CN(C)c1cc(NC(=O)CNC(C)(C)C)c(O)c2c1C[C@H]1C[C@H]3[C@H](N(C)C)C(=O)C(C(N)=O)=C(O)[C@@]3(O)C(=O)C1=C2O,,broth dilution,MIC,,Mycobacterium abscessus,,V206,0.5 µg/mL
CC[C@@]1(O)C(=O)OCc2c1cc1n(c2=O)Cc2cc3ccccc3nc2-1,,,MIC,,Saccharomyces cerevisiae,,JHY6-1C,>100 µg/mL
Cc1cn([C@H]2C[C@H](N=[N+]=[N-])[C@@H](CO)O2)c(=O)[nH]c1=O,,virus yield,inhibition,U-937,HIV-2,100 µM,LAV-2,99.9%
C[C@H]1CN(c2c(F)cc3c(=O)c(C(=O)O)cn(C4CC4)c3c2OC(F)F)CCN1,,,MIC50,,Staphylococcus aureus,,20 strains (oxacillin-susceptible),0.06 µg/mL
NC(=O)c1[nH]nc([C@@H]2O[C@H](CO)[C@@H](O)[C@H]2O)c1O,,virus yield,EC90,MA-104,West Nile virus,,NEW YORK,0.3 µg/mL
O=c1[nH]c(=O)n([C@@H]2O[C@H](CO)[C@@H](O)[C@@H]2O)cc1/C=C/Br,,antigen / flow cytometry,EC50,HSB-2,Human herpesvirus 6,,GS,>75 µM
Nc1ncn([C@@H]2O[C@H](CO)[C@@H](O)[C@H]2O)c(=O)n1,,cytopathic effect / visual reading,EC50,VERO,West Nile virus,,NEW YORK,>320 µg/mL
Nc1nc2c(ncn2COCCO)c(=O)[nH]1,,plaque count,EC50,C1271,Mouse cytomegalovirus,,Ganciclovir-resistant,5.9 µM